Results deposited as PubChem BioAssay AID624099 (ICCB-Longwood, 2012).
The deposit covers about 21,000 reagents; this is a part drawn at random. 497 of all reagents (2.4%) count as active. 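Higher z means weaker E2 silencing; only reporter increases were scored, and knock-downs that hurt cell survival may mask genuine repressor factors.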

- Test: 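Human genes that papillomavirus E2 requires to repress the HPV18 LCR promoter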 (primary screen)
- Cells: human C33A cervical carcinoma cells (HPV-negative) stably expressing BPV1 E2 and an HPV18 LCR luciferase reporter
- Reagent: siRNA pool against human genes, 40 nM
- Time to read-out: 72 h
- Detection: 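HPV18 LCR reporter light per well, converted to plate-wise z-scores that exclude control wells, and averaged over triplicate plates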
- Scale: mean z-score and z-score: higher = stronger reporter signal, weaker E2 silencing
- Call rule: 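Hit if mean z-score reaches 2 and two or more of three replicate z-scores also reach 2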

Which result is listed for IFIH1 (interferon induced with helicase C domain 1)?
mean z-score: 1.65; z-score, replicate A: 1.66; z-score, replicate B: 1.77; z-score, replicate C: 1.52; activity call: inactive

Which result is listed for LOC400614 (retired record)?
mean z-score: 0; z-score, replicate A: -0.12; z-score, replicate B: 0.28; z-score, replicate C: -0.16; activity call: inactive

How did the screen score ALDH1A2 (aldehyde dehydrogenase 1 family member A2)?
mean z-score: -1.14; z-score, replicate A: -1.2; z-score, replicate B: -1.11; z-score, replicate C: -1.1; activity call: inactive

With SNAP25 (synaptosome associated protein 25), what does the deposit list?
mean z-score: -0.47; z-score, replicate A: -0.37; z-score, replicate B: -0.64; z-score, replicate C: -0.4; activity call: inactive

What did the screen give for VEPH1 (ventricular zone expressed PH domain containing 1)?
mean z-score: 0.34; z-score, replicate A: 0.95; z-score, replicate B: -0.05; z-score, replicate C: 0.12; activity call: inactive

For LOC652276, what was measured?
mean z-score: 0.07; z-score, replicate A: 0.08; z-score, replicate B: 0.2; z-score, replicate C: -0.06; activity call: inactive

For SEMA6A (semaphorin 6A), what does the deposit list?
mean z-score: -0.63; z-score, replicate A: 0.33; z-score, replicate B: 0; z-score, replicate C: -2.22; activity call: inactive

Which result is listed for BCL2L13 (BCL2 like 13)?
mean z-score: -0.54; z-score, replicate A: -0.56; z-score, replicate B: -0.62; z-score, replicate C: -0.45; activity call: inactive

With LOC387872 (retired record), what was measured?
mean z-score: -1.02; z-score, replicate A: -1.18; z-score, replicate B: -0.66; z-score, replicate C: -1.22; activity call: inactive

With MT-ND5 (mitochondrially encoded NADH dehydrogenase 5), how do the results read?
mean z-score: 1.92; z-score, replicate A: 1.86; z-score, replicate B: 1.74; z-score, replicate C: 2.16; activity call: inactive

What is on record for SERPINB5 (serpin family B member 5)?
mean z-score: -0.18; z-score, replicate A: -0.29; z-score, replicate B: -0.06; z-score, replicate C: -0.2; activity call: inactive

With TTLL2 (tubulin tyrosine ligase like 2), what was measured?
mean z-score: -0.29; z-score, replicate A: -0.53; z-score, replicate B: -0.38; z-score, replicate C: 0.05; activity call: inactive

Which result is listed for GPSM2 (G protein signaling modulator 2)?
mean z-score: 0.79; z-score, replicate A: 0.58; z-score, replicate B: 0.61; z-score, replicate C: 1.16; activity call: inactive

With MTHFSD (methenyltetrahydrofolate synthetase domain containing), what was measured?
mean z-score: -0.31; z-score, replicate A: -0.27; z-score, replicate B: -0.69; z-score, replicate C: 0.04; activity call: inactive

What is on record for IRF2BP1 (interferon regulatory factor 2 binding protein 1)?
mean z-score: -2.53; z-score, replicate A: -2.57; z-score, replicate B: -2.51; z-score, replicate C: -2.52; activity call: inactive

With ACSL1 (acyl-CoA synthetase long chain family member 1), what does the deposit list?
mean z-score: 1.03; z-score, replicate A: 1.14; z-score, replicate B: 1.03; z-score, replicate C: 0.92; activity call: inactive

Which result is listed for MRPL55 (mitochondrial ribosomal protein L55)?
mean z-score: -0.17; z-score, replicate A: 0; z-score, replicate B: -0.23; z-score, replicate C: -0.28; activity call: inactive

With NOTCH2 (notch receptor 2), what was measured?
mean z-score: 0.03; z-score, replicate A: 0.17; z-score, replicate B: -0.09; z-score, replicate C: 0.02; activity call: inactive

In a second layout: results already given.
{"Target gene": "ACSL1 (acyl-CoA synthetase long chain family member 1)", "mean z-score": 1.03, "z-score, replicate A": 1.14, "z-score, replicate B": 1.03, "z-score, replicate C": 0.92, "activity call": "inactive"}
{"Target gene": "MRPL55 (mitochondrial ribosomal protein L55)", "mean z-score": -0.17, "z-score, replicate A": 0, "z-score, replicate B": -0.23, "z-score, replicate C": -0.28, "activity call": "inactive"}

More entries:
Which result is listed for ANKRD53 (ankyrin repeat domain 53)?
mean z-score: 0.43; z-score, replicate A: 0.79; z-score, replicate B: 0.18; z-score, replicate C: 0.3; activity call: inactive

What did the screen give for MED12L (mediator complex subunit 12L)?
mean z-score: 1.11; z-score, replicate A: 0.91; z-score, replicate B: 1.31; z-score, replicate C: 1.12; activity call: inactive

What did the screen give for ZBTB40 (zinc finger and BTB domain containing 40)?
mean z-score: -0.15; z-score, replicate A: -0.28; z-score, replicate B: -0.21; z-score, replicate C: 0.03; activity call: inactive

Which result is listed for MS4A3 (membrane spanning 4-domains A3)?
mean z-score: 1.24; z-score, replicate A: 1.35; z-score, replicate B: 0.87; z-score, replicate C: 1.51; activity call: inactive

What did the screen give for COL18A1 (collagen type XVIII alpha 1 chain)?
mean z-score: -0.32; z-score, replicate A: -0.41; z-score, replicate B: -0.22; z-score, replicate C: -0.31; activity call: inactive

What is on record for PKD1L2 (polycystin 1 like 2 (gene/pseudogene))?
mean z-score: -0.17; z-score, replicate A: -0.25; z-score, replicate B: -0.18; z-score, replicate C: -0.09; activity call: inactive

Which result is listed for DIS3 (DIS3 exosome endoribonuclease and 3'-5' exoribonuclease)?
mean z-score: -0.42; z-score, replicate A: -0.39; z-score, replicate B: -0.52; z-score, replicate C: -0.36; activity call: inactive

Which result is listed for TGS1 (trimethylguanosine synthase 1)?
mean z-score: -0.6; z-score, replicate A: -0.53; z-score, replicate B: -0.45; z-score, replicate C: -0.83; activity call: inactive

What did the screen give for FGB (fibrinogen beta chain)?
mean z-score: -0.28; z-score, replicate A: -0.55; z-score, replicate B: -0.11; z-score, replicate C: -0.18; activity call: inactive
